Measured values from several laboratories, pooled; numbers as filed in NIAID ChemDB.

Shared fields: tests in culture; agent: HIV-1; endpoint: inhibition

Percent inhibition refers to the dose given; in toxicity tests it is the harm to the cells. Two numbers with a dash give a range or band. Conditions beyond the fields shown may differ between rows. Blank or dashed fields: not listed here.

compound | strain | cell line | tested at | read by | value
O=C(C(=O)N1CCN(C(=O)c2ccccc2)CC1)c1c[nH]c2c(Br)cc(F)cc12 | - | HeLa + HELA CD4+/CCR5 | 10 µM | luciferase | 75%
CC1(C)[C@@H](O[C@H]2O[C@H](C(=O)O)[C@@H](O)[C@H](O)[C@H]2O[C@@H]2O[C@H](C(=O)O)[C@@H](O)[C@H](O)[C@H]2O)CC[C@]2(C)[C@H]3C(=O)C=C4[C@@H]5C[C@@](C)(C(=O)O)CC[C@]5(C)CC[C@@]4(C)[C@]3(C)CC[C@@H]12 | IIIB | MT-4 | 150 µM | cytopathic effect | 83%
C[C@H]1[C@H](O)[C@@H](C)/C=C/C=C/C=C/C=C/C=C/C=C/C=C/[C@H](O[C@@H]2O[C@H](C)[C@@H](O)[C@H](N)[C@@H]2O)C[C@@H]2O[C@](O)(C[C@@H](O)C[C@@H](O)CC[C@H](O)[C@@H](O)C[C@@H](O)CC(=O)O[C@H]1C)C[C@H](O)[C@H]2C(=O)O | MDR3761 Primary isolate X4 (SI) | PBMC | 4.5 µM | p24 / RT activity | 90%
N=C1Sc2ccccc2C2=NCCCN12 | 92UG029 | PBMC | 4.67 µM | β-galactosidase | 90%
O=C(NCCc1ccccc1)Nc1ncco1 | - | MT-4 | 10 µg/mL | cytopathic effect / XTT | 0%
Cc1ccc(-c2ccc3c(c2)C=C(C(=O)Nc2ccc(C[N+](C)(C)C4CCOCC4)cc2)CCC3)cc1 | TB1 CLADE C | PBMC | 1 µM | p24 | 97.6%
CCC1CN(C(=O)C(=O)c2c[nH]c3c(C(=O)OC)cccc23)CCN1C(=O)c1ccccc1 | - | HeLa + HELA CD4+/CCR5 | 10 µM | luciferase | >98%
CN1C(=O)[C@@H](Cc2ccccc2)NC1=S | - | MT-4 | 1 µg/mL | cytopathic effect / XTT | 0%
O=c1oc2cc(O)c(O)cc2c(O)c1-c1coc2c1c(=O)oc1cc(O)c(O)cc12 | IIIB | MT-4 | 5 µM | MTT | 50%
O=C(C(=O)N1CCN(C(=O)c2ccc(Cl)cc2S)CC1)c1c[nH]c2cccc(Cl)c12 | - | HeLa + HELA CD4+/CCR5 | 10 µM | luciferase | >98%
Fc1cccc(Cl)c1CCNC(=S)Nc1nccs1 | - | MT-4 | 100 µg/mL | cytopathic effect / XTT | 16–100%
CC(C)(C)OC(=O)Nc1ccccc1C(=O)N1CCN(C(=O)C(=O)c2c[nH]c3cccc(F)c23)CC1 | - | HeLa + HELA CD4+/CCR5 | 10 µM | luciferase | 51%
O=C1[C@@H](Cc2ccc(O)cc2)NC(=S)N1c1ccccc1 | - | MT-4 | 1 µg/mL | cytopathic effect / XTT | 4–44%
COC(=O)c1cccc2c(C(=O)C(=O)N3CCN(C(=O)c4ccccc4)C(C)C3)c[nH]c12 | - | HeLa + HELA CD4+/CCR5 | 10 µM | luciferase | >98%
O=C(NCCc1ccccc1)Nc1nc(C(F)(F)F)cs1 | - | MT-4 | 10 µg/mL | RT activity | 96%

Repeating the final 2 entries:

compound | strain | cell line | tested at | read by | value
COC(=O)c1cccc2c(C(=O)C(=O)N3CCN(C(=O)c4ccccc4)C(C)C3)c[nH]c12 | - | HeLa + HELA CD4+/CCR5 | 10 µM | luciferase | >98%
O=C(NCCc1ccccc1)Nc1nc(C(F)(F)F)cs1 | - | MT-4 | 10 µg/mL | RT activity | 96%